Measured values from patent US20260250325A1, “Antiviral Polypeptide Membrane Fusion Inhibitor, and Preparation Method and Application Thereof” (priority 2025, published 2026).
Where a SMILES comes first, the peptide text is derived from it. The star is where a group is joined. Succinyl(4-O-cholesteryl) = CC(C)CCC[C@@H](C)[C@H]1CC[C@H]2[C@@H]3CC=C4C[C@@H](OC(=O)CCC(=O)*)CC[C@]4(C)[C@H]3CC[C@]12C

Test system: RSV A long virus strain
Format: cell-based
Settings: CC50/IC50, HEp-2 cells
Outline: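 Plaque reduction in HEp-2 cells: virus (100 PFU/well) and serially diluted compound (8 concentrations) mixed 1 h, adsorbed 2 h, then overlaid with 0.8% CMC medium plus compound for 1 day at 37 °C. Spots counted after anti-RSV immunostaining; IC50 from normalized inhibition, CC50 from viability data.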

SMILES	Safety index (SI)
CC[C@H](C)[C@H](NC(=O)[C@H](CCCCN)NC(=O)[C@H](CCCCN)NC(=O)[C@H](CC(C)C)NC(=O)[C@H](CO)NC(=O)[C@H](CCC(=O)O)NC(=O)[C@H](CCC(=O)O)NC(=O)[C@@H](NC(=O)[C@H](CCCCN)NC(=O)[C@H](CCCCN)NC(=O)[C@H](CC(N)=O)NC(=O)[C@@H](NC(=O)[C@H](CCC(=O)O)NC(=O)[C@H](CCC(=O)O)NC(=O)[C@@H](NC(=O)[C@H](CCCCN)NC(=O)[C@H](CCCCN)NC(=O)[C@H](CC(=O)O)NC(=O)[C@H](Cc1ccccc1)NC(=O)[C@H](CCC(=O)O)NC(=O)[C@H](CC(=O)O)NC(=O)[C@H](Cc1c[nH]c2ccccc12)NC(C)=O)[C@@H](C)CC)C(C)C)[C@@H](C)CC)C(=O)N[C@@H](CCC(=O)O)C(=O)N[C@@H](CCC(=O)O)C(=O)N[C@@H](CO)C(=O)N[C@@H](CC(=O)O)C(=O)N[C@@H](CCCCN)C(=O)N[C@@H](CCCCN)C(=O)N[C@@H](CC(C)C)C(=O)N[C@@H](CCC(=O)O)C(=O)N[C@@H](CCC(=O)O)C(=O)N[C@H](C(=O)N[C@@H](CC(N)=O)C(=O)N[C@@H](C)C(=O)N[C@@H](CCC(=O)O)C(=O)N[C@@H](C)C(=O)N[C@@H](C)C(=O)N[C@@H](C)C(=O)N[C@@H](CCCCN)C(=O)N[C@@H](CCCCNC(=O)CCC(=O)O[C@H]1CC[C@@]2(C)C(=CC[C@H]3[C@@H]4CC[C@H]([C@H](C)CCCC(C)C)[C@@]4(C)CC[C@@H]32)C1)C(N)=O)C(C)C [Compound 40] (Ac-WDEFDKKIEEVNKKIEESLKKIEESDKKLEEVNAEAAAKK(Succinyl(4-O-cholesteryl))-NH2)	1119.21
CC[C@H](C)[C@H](NC(=O)[C@H](CCCCN)NC(=O)[C@H](CCCCN)NC(=O)[C@H](CC(C)C)NC(=O)[C@H](CO)NC(=O)[C@H](CCC(=O)O)NC(=O)[C@H](CCC(=O)O)NC(=O)[C@@H](NC(=O)[C@H](CCCCN)NC(=O)[C@H](CCCCN)NC(=O)[C@H](CC(N)=O)NC(=O)[C@@H](NC(=O)[C@H](CCC(=O)O)NC(=O)[C@H](CCC(=O)O)NC(=O)[C@@H](NC(=O)[C@H](CCCCN)NC(=O)[C@H](CCCCN)NC(=O)[C@H](CC(=O)O)NC(=O)[C@H](Cc1ccccc1)NC(=O)[C@H](CCC(=O)O)NC(=O)[C@H](CC(=O)O)NC(=O)[C@H](Cc1c[nH]c2ccccc12)NC(C)=O)[C@@H](C)CC)C(C)C)[C@@H](C)CC)C(=O)N[C@@H](CCC(=O)O)C(=O)N[C@@H](CCC(=O)O)C(=O)N[C@@H](CO)C(=O)N[C@@H](CC(=O)O)C(=O)N[C@@H](CCCCN)C(=O)N[C@@H](CCCCN)C(=O)N[C@@H](CC(C)C)C(=O)N[C@@H](CCC(=O)O)C(=O)N[C@@H](CCC(=O)O)C(=O)N[C@H](C(=O)N[C@@H](CC(N)=O)C(=O)N[C@@H](CCC(=O)O)C(=O)N[C@@H](C)C(=O)N[C@@H](C)C(=O)N[C@@H](C)C(=O)N[C@@H](CCCCN)C(=O)N[C@@H](CCCCNC(=O)CCC(=O)O[C@H]1CC[C@@]2(C)C(=CC[C@H]3[C@@H]4CC[C@H]([C@H](C)CCCC(C)C)[C@@]4(C)CC[C@@H]32)C1)C(N)=O)C(C)C [Compound 41] (Ac-WDEFDKKIEEVNKKIEESLKKIEESDKKLEEVNEAAAKK(Succinyl(4-O-cholesteryl))-NH2)	1144.98
CC[C@H](C)[C@H](NC(=O)[C@H](CO)NC(=O)[C@H](C)NC(=O)[C@H](CC(=O)O)NC(=O)[C@H](Cc1ccccc1)NC(C)=O)C(=O)N[C@@H](CCC(=O)O)C(=O)N[C@@H](CCC(=O)O)C(=O)N[C@H](C(=O)N[C@@H](CC(N)=O)C(=O)N[C@@H](CCCNC(=N)N)C(=O)N[C@@H](CCCNC(=N)N)C(=O)N[C@H](C(=O)N[C@@H](CCC(=O)O)C(=O)N[C@@H](CCC(=O)O)C(=O)N[C@@H](CO)C(=O)N[C@@H](CC(C)C)C(=O)N[C@@H](CCCNC(=N)N)C(=O)N[C@@H](CCCNC(=N)N)C(=O)N[C@H](C(=O)N[C@@H](CCC(=O)O)C(=O)N[C@@H](CCC(=O)O)C(=O)N[C@@H](CO)C(=O)N[C@@H](CC(=O)O)C(=O)N[C@@H](CCCNC(=N)N)C(=O)N[C@@H](CCCNC(=N)N)C(=O)N[C@@H](CC(C)C)C(=O)N[C@@H](CCC(=O)O)C(=O)N[C@@H](CCC(=O)O)C(=O)N[C@H](C(=O)N[C@@H](CC(N)=O)C(=O)N[C@@H](C)C(=O)N[C@@H](CCC(=O)O)C(=O)N[C@@H](C)C(=O)N[C@@H](C)C(=O)N[C@@H](C)C(=O)N[C@@H](CCCCN)C(=O)N[C@@H](CCCCNC(=O)CCC(=O)O[C@H]1CC[C@@]2(C)C(=CC[C@H]3[C@@H]4CC[C@H]([C@H](C)CCCC(C)C)[C@@]4(C)CC[C@@H]32)C1)C(N)=O)C(C)C)[C@@H](C)CC)[C@@H](C)CC)C(C)C [Compound 42] (Ac-FDASIEEVNRRIEESLRRIEESDRRLEEVNAEAAAKK(Succinyl(4-O-cholesteryl))-NH2)	314.06
CC[C@H](C)[C@H](NC(=O)[C@H](CO)NC(=O)[C@H](C)NC(=O)[C@H](CC(=O)O)NC(=O)[C@H](Cc1ccccc1)NC(=O)[C@H](CCC(=O)O)NC(=O)[C@H](CC(=O)O)NC(=O)[C@H](Cc1c[nH]c2ccccc12)NC(C)=O)C(=O)N[C@@H](CCC(=O)O)C(=O)N[C@@H](CCC(=O)O)C(=O)N[C@H](C(=O)N[C@@H](CC(N)=O)C(=O)N[C@@H](CCCNC(=N)N)C(=O)N[C@@H](CCCNC(=N)N)C(=O)N[C@H](C(=O)N[C@@H](CCC(=O)O)C(=O)N[C@@H](CCC(=O)O)C(=O)N[C@@H](CO)C(=O)N[C@@H](CC(C)C)C(=O)N[C@@H](CCCNC(=N)N)C(=O)N[C@@H](CCCNC(=N)N)C(=O)N[C@H](C(=O)N[C@@H](CCC(=O)O)C(=O)N[C@@H](CCC(=O)O)C(=O)N[C@@H](CO)C(=O)N[C@@H](CC(=O)O)C(=O)N[C@@H](CCCNC(=N)N)C(=O)N[C@@H](CCCNC(=N)N)C(=O)N[C@@H](CC(C)C)C(=O)N[C@@H](CCC(=O)O)C(=O)N[C@@H](CCC(=O)O)C(=O)N[C@H](C(=O)N[C@@H](CCC(=O)O)C(=O)N[C@@H](C)C(=O)N[C@@H](C)C(=O)N[C@@H](C)C(=O)N[C@@H](CCCCN)C(=O)N[C@@H](CCCCNC(=O)CCC(=O)O[C@H]1CC[C@@]2(C)C(=CC[C@H]3[C@@H]4CC[C@H]([C@H](C)CCCC(C)C)[C@@]4(C)CC[C@@H]32)C1)C(N)=O)C(C)C)[C@@H](C)CC)[C@@H](C)CC)C(C)C [Compound 43] (Ac-WDEFDASIEEVNRRIEESLRRIEESDRRLEEVEAAAKK(Succinyl(4-O-cholesteryl))-NH2)	671.23
CC[C@H](C)[C@H](NC(=O)[C@H](CCCCN)NC(=O)[C@H](CCCCN)NC(=O)[C@H](CC(C)C)NC(=O)[C@H](CO)NC(=O)[C@H](CCC(=O)O)NC(=O)[C@H](CCC(=O)O)NC(=O)[C@@H](NC(=O)[C@H](CCCCN)NC(=O)[C@H](CCCCN)NC(=O)[C@H](CC(N)=O)NC(=O)[C@@H](NC(=O)[C@H](CCC(=O)O)NC(=O)[C@H](CCC(=O)O)NC(=O)[C@@H](NC(=O)[C@H](CCCCN)NC(=O)[C@H](CCCCN)NC(=O)[C@H](CC(=O)O)NC(=O)[C@H](Cc1ccccc1)NC(=O)[C@H](CCC(=O)O)NC(=O)[C@H](CC(=O)O)NC(=O)[C@H](Cc1c[nH]c2ccccc12)NC(C)=O)[C@@H](C)CC)C(C)C)[C@@H](C)CC)C(=O)N[C@@H](CCC(=O)O)C(=O)N[C@@H](CCC(=O)O)C(=O)N[C@@H](CO)C(=O)N[C@@H](CC(=O)O)C(=O)N[C@@H](CCCCN)C(=O)N[C@@H](CCCCN)C(=O)N[C@@H](CC(C)C)C(=O)N[C@@H](Cc1c[nH]cn1)C(=O)N[C@@H](CC(N)=O)C(=O)N[C@H](C(=O)N[C@@H](CCC(=O)O)C(=O)N[C@@H](C)C(=O)N[C@@H](C)C(=O)N[C@@H](C)C(=O)N[C@@H](CCCCN)C(=O)N[C@@H](CCCCNC(=O)CCC(=O)O[C@H]1CC[C@@]2(C)C(=CC[C@H]3[C@@H]4CC[C@H]([C@H](C)CCCC(C)C)[C@@]4(C)CC[C@@H]32)C1)C(N)=O)C(C)C [Compound 44] (Ac-WDEFDKKIEEVNKKIEESLKKIEESDKKLHNVEAAAKK(Succinyl(4-O-cholesteryl))-NH2)	2137.32
CC[C@H](C)[C@H](NC(=O)[C@H](CO)NC(=O)[C@H](C)NC(=O)[C@H](CC(=O)O)NC(=O)[C@H](Cc1ccccc1)NC(=O)[C@H](CCC(=O)O)NC(=O)[C@H](CC(=O)O)NC(=O)[C@H](Cc1c[nH]c2ccccc12)NC(C)=O)C(=O)N[C@@H](CO)C(=O)N[C@@H](CCC(N)=O)C(=O)N[C@H](C(=O)N[C@@H](CC(N)=O)C(=O)N[C@@H](CCC(=O)O)C(=O)N[C@@H](CCCCN)C(=O)N[C@H](C(=O)N[C@@H](CC(N)=O)C(=O)N[C@@H](CCC(N)=O)C(=O)N[C@@H](CO)C(=O)N[C@@H](CC(C)C)C(=O)N[C@@H](CCC(=O)O)C(=O)N[C@@H](CCC(=O)O)C(=O)N[C@H](C(=O)N[C@@H](CCCNC(=N)N)C(=O)N[C@@H](CCCCN)C(=O)N[C@@H](CO)C(=O)N[C@@H](CC(=O)O)C(=O)N[C@@H](CCC(=O)O)C(=O)N[C@@H](CC(C)C)C(=O)N[C@@H](CC(C)C)C(=O)N[C@@H](Cc1c[nH]cn1)C(=O)N[C@@H](CC(N)=O)C(=O)N[C@@H](CCC(=O)O)C(=O)N[C@@H](C)C(=O)N[C@@H](C)C(=O)N[C@@H](C)C(=O)N[C@@H](CCCCN)C(=O)N[C@@H](CCCCNC(=O)CCC(=O)O[C@H]1CC[C@@]2(C)C(=CC[C@H]3[C@@H]4CC[C@H]([C@H](C)CCCC(C)C)[C@@]4(C)CC[C@@H]32)C1)C(N)=O)[C@@H](C)CC)[C@@H](C)CC)C(C)C [Compound 45] (Ac-WDEFDASISQVNEKINQSLEEIRKSDELLHNEAAAKK(Succinyl(4-O-cholesteryl))-NH2)	815.34
